Tags and fusion partners may be left off the protein sequences shown.

In this series the target is T1, H-NS (UniProt A0A0F6B244).
T1 sequence (looked up): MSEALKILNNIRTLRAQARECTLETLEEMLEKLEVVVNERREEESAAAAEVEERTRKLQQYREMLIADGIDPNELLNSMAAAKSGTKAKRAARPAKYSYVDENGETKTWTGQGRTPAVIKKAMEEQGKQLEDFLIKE
The experiment in a line: EMSA. The following applies: 20 mM Tris-HCl, 1 mM EDTA, 100 ug/mL BSA, 1 mM DTT, 10% glycerol, 80 mM NaCl, 25 C, 30 min; 50 ng DNA in 20 uL, protein 0-9.76 uM; pH 7.5 or 5.5 in Fig. 5B; recombinant protein; residues 1-137; protein details: N-terminal 6xHis; probe letters rebuilt from the primers and the genome. For orientation: A gel shift assay detects complexes by their altered migration in electrophoresis.

In the case of “CGACAGACGGTGAGTATCCCCCCTGCCAATAAGCTCTTTTTTGTGCGGTGCCTCAAGGAAAATTTAAGTTGAGATAATTAAAACGTGTGCTTAATAAAGCGTAATTTTGAATTCCTTACATTCCTGGCTATTGCACAACTGAATTTATCGCTCTATTATTAGCTCAACAAACCACCCCAATATAAGTTTGAGATTACTACAATGAGCGAAGCACTTAAAATTCTGAACAACATCCGTACTCTTCGTGCGCAGGCAAGAGAATGTACTCTGGAAACGCTTGAAGAAATGCTGGAAAAATTAGAAGTTGTCGTTAATGAGCGTCGTGAAGAAGAAAGCGCTGCTGCTGCTGAAGTGGAAGAACGCA (double strand) [hns promoter (Phns)]”, the binding result is “binds”.

The record behind these values is article PMC6770890.
